# Measured values reported in patent US7964624B1, “Inhibitors of serine proteases” (priority 2005, dated 2011).
# Chains of the proteins cited; added tags and fusions are not shown. A line that says so, or that is headed by a name, gives the form on record, which may keep a tag or linker. Residues count along the entry.
# UniProt P27958, 1658-1711 partner limits assumed: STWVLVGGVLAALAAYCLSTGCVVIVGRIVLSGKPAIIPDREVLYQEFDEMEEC
# UniProt P27958, 1027-1711 with tags or gaps with the stated changes: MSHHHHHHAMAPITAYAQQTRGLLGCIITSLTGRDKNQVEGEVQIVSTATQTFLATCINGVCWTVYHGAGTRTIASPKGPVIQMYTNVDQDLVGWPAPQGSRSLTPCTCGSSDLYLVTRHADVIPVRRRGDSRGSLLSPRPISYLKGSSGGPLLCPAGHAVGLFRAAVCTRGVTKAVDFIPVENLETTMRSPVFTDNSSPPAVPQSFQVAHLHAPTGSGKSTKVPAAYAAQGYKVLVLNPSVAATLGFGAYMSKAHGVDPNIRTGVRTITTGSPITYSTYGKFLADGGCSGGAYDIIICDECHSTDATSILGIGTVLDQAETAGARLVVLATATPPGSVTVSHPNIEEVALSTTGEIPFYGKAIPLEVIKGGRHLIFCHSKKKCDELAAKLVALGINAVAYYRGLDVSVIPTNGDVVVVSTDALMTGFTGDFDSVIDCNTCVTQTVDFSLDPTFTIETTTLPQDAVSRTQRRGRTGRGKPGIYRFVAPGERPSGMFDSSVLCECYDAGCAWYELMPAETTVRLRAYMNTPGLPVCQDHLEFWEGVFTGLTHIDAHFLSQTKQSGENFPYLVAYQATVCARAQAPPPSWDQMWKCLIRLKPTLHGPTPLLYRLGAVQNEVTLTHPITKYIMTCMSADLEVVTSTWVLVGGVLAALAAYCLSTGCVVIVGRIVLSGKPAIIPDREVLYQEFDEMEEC
# Biological target: full-length hepatitis C viral protein NS3•4A (Hepatitis C virus genotype 1a, UniProt P27958)
# Test: HCV NS3 Peptide Cleavage Assay (Enzyme Assay 2), apparent Ki
# Details: read-out: Enzyme Assay 2 (HCV NS3 Peptide Cleavage Assay) activity; apparent Ki class
row,Compound,pKi
1,CCC[C@@H](NC(=O)[C@@H]1C[C@]2(CC(c3cc(C)c(OC)c(C)c3)=NO2)CN1C(=O)[C@@H](NC(=O)CC1CCCCC1)C(C)(C)C)C(=O)C(=O)NC1CC1,6.30 to 7.00
2,CNC(=O)C(=O)[C@H](CC1CC1)NC(=O)[C@@H]1C[C@]2(CC(c3cc(C)c(OC)c(C)c3)=NO2)CN1C(=O)[C@@H](NC(=O)CC(C)(C)C)C(C)(C)C,> 7.00
3,CCC[C@H](NC(=O)[C@@H]1C[C@]2(CC(c3cc(C)c(OC)c(C)c3)=NO2)CN1C(=O)[C@@H](NC(=O)OC(C)(C)C)C(C)(C)C)C(=O)C(N)=O,> 7.00
4,CCC[C@H](NC(=O)[C@@H]1C[C@]2(CC(c3cccc(Cl)c3)=NO2)CN1C(=O)[C@@H](NC(=O)CC1CCCCCC1)C(C)(C)C)C(=O)C(=O)NC,> 7.00
5,CCC[C@H](NC(=O)[C@@H]1C[C@]2(CC(c3cccc(N)c3)=NO2)CN1C(=O)[C@@H](NC(=O)CC1CCCCC1)C(C)(C)C)C(=O)C(=O)NC1CC1,6.30 to 7.00
6,CCC[C@H](NC(=O)[C@@H]1CC2(CC(c3cnc(OC)nc3OC)=NO2)CN1C(=O)[C@@H](NC(=O)OC1CCCC1)C(C)(C)C)C(=O)C(=O)NC (some centres unmarked),6.30 to 7.00
7,CNC(=O)C(=O)[C@H](CC1CC1)NC(=O)[C@@H]1C[C@]2(CC(c3cccc(Cl)c3)=NO2)CN1C(=O)[C@@H](NC(=O)[C@H]1C[C@H]1C)C(C)(C)C,> 7.00
8,CCC[C@H](NC(=O)[C@@H]1C[C@]2(CC(c3cc(C)c(OC)c(C)c3)=NO2)CN1C(=O)[C@@H](NC(=O)CC(C)(C)C)C(C)(C)C)C(=O)C(=O)NC1CC1,> 7.00
9,CCOc1c(C)cc(C2=NO[C@]3(C2)C[C@@H](C(=O)N[C@@H](CC2CC2)C(=O)C(=O)NC)N(C(=O)[C@@H](NC(=O)CC2CCCCC2)C(C)(C)C)C3)cc1C,> 7.00
10,CNC(=O)C(=O)[C@H](CC1CC1)NC(=O)[C@@H]1C[C@]2(CC(c3cc(C)c(OC)c(C)c3)=NO2)CN1C(=O)[C@@H](NC(=O)OC(C)(C)C)C(C)(C)C,> 7.00
11,CNC(=O)C(=O)[C@H](CC1CC1)NC(=O)[C@@H]1C[C@]2(CC(c3cc(C)c(OC)c(C)c3)=NO2)CN1C(=O)[C@@H](NC(=O)OC1CCCC1)C(C)(C)OC,> 7.00
12,COc1c(C)cc(C2=NO[C@]3(C2)C[C@@H](C(=O)N[C@@H](CC2CC2)C(=O)C(N)=O)N(C(=O)[C@@H](NC(=O)OC(C)(C)C)C(C)(C)C)C3)cc1C,> 7.00
13,CCC[C@H](NC(=O)[C@@H]1C[C@]2(CC(c3cc(C)c(OC)c(C)c3)=NO2)CN1C(=O)[C@@H](NC(=O)CC1CCCCCC1)C(C)(C)C)C(=O)C(=O)NC,> 7.00
14,CNC(=O)C(=O)[C@H](CC1CC1)NC(=O)[C@@H]1C[C@]2(CC(c3cccc(Cl)c3)=NO2)CN1C(=O)[C@@H](NC(=O)[C@@H]1C[C@H]1c1cccs1)C(C)(C)C,> 7.00
15,CNC(=O)C(=O)[C@H](CC1CC1)NC(=O)[C@@H]1C[C@]2(CC(c3cc(C)c(OC)c(Cl)c3)=NO2)CN1C(=O)[C@@H](NC(=O)[C@H]1C[C@@H]1c1ccccc1)C(C)(C)C,> 7.00
16,CCC[C@H](NC(=O)[C@@H]1C[C@]2(CC(c3cc(Cl)c(OC)cc3OC)=NO2)CN1C(=O)[C@@H](NC(=O)OC(C)(C)C)C(C)(C)C)C(=O)C(=O)NC,> 7.00
17,CCC[C@H](NC(=O)[C@@H]1C[C@]2(CC(c3cccc(Cl)c3)=NO2)CN1C(=O)[C@@H](NC(=O)CC1CC2CCC1C2)C(C)(C)C)C(=O)C(=O)NC (some centres unmarked),> 7.00

# Same assay, conditions: read-out: Enzyme Assay 2; HCV NS3 Peptide Cleavage Assay, apparent Ki
row,Compound,pKi
1,CNC(=O)C(=O)[C@H](CC1CC1)NC(=O)[C@@H]1C[C@]2(CC(c3cccc(Cl)c3)=NO2)CN1C(=O)[C@@H](NC(=O)OC1CCCC1)C(C)(C)C,> 7.00
2,CCC[C@H](NC(=O)[C@@H]1C[C@]2(CC(c3cc(Cl)c(OCC)cc3OC)=NO2)CN1C(=O)[C@@H](NC(=O)CC1CCCCC1)C(C)(C)C)C(=O)C(=O)NC,> 7.00
3,CCC[C@H](NC(=O)[C@@H]1C[C@]2(CC(c3cccc(Cl)c3)=NO2)CN1C(=O)[C@@H](NC(=O)[C@@H]1C[C@H]1CC(C)C)C(C)(C)C)C(=O)C(=O)NC1CC1,> 7.00
4,CNC(=O)C(=O)[C@H](CC1CC1)NC(=O)[C@@H]1C[C@]2(CC(c3cccc(Cl)c3)=NO2)CN1C(=O)[C@@H](NC(=O)[C@@H]1C[C@H]1c1ccco1)C(C)(C)C,> 7.00
5,CCC[C@H](NC(=O)C1C[C@]2(CC(c3cccc(Cl)c3)=NO2)CN1C(=O)[C@@H](NC(=O)C1C[C@@H]1F)C(C)(C)C)C(=O)C(=O)NC1CC1 (some centres unmarked),> 7.00
6,CNC(=O)C(=O)[C@H](CC1CC1)NC(=O)[C@@H]1C[C@]2(CC(c3cccc(Cl)c3)=NO2)CN1C(=O)[C@@H](NC(=O)[C@H]1CC12CCCCC2)C(C)(C)C,> 7.00
7,CNC(=O)C(=O)[C@H](CC1CC1)NC(=O)[C@@H]1C[C@]2(CC(c3cccc(Cl)c3)=NO2)CN1C(=O)[C@@H](NC(=O)[C@@H]1C[C@H]1CC(C)C)C(C)(C)C,> 7.00
8,COc1c(C)cc(C2=NO[C@]3(C2)C[C@@H](C(=O)N[C@@H](CC2CC2)C(=O)C(N)=O)N(C(=O)[C@@H](NC(=O)[C@H]2C[C@@H]2c2ccccc2)C(C)(C)C)C3)cc1C,> 7.00
9,CCC[C@H](NC(=O)[C@@H]1C[C@]2(CC(c3cccc(Cl)c3)=NO2)CN1C(=O)[C@@H](NC(=O)[C@@H]1C[C@H]1CC(C)C)C(C)(C)C)C(=O)C(N)=O,> 7.00
10,CCC[C@H](NC(=O)[C@@H]1C[C@]2(CC(c3cc(C)c(OC)c(C)c3)=NO2)CN1C(=O)[C@@H](NC(=O)[C@@H]1C[C@H]1c1ccccc1)C(C)(C)OC)C(=O)C(=O)NC1CC1,> 7.00
11,CCC[C@H](NC(=O)[C@@H]1C[C@]2(CC(c3cc(C)c(OC)c(Cl)c3)=NO2)CN1C(=O)[C@@H](NC(=O)[C@@H]1C[C@H]1c1ccccc1)C(C)(C)C)C(=O)C(=O)NC,> 7.00
12,CCC[C@H](NC(=O)[C@@H]1C[C@]2(CC(c3cc(C)c(OC)c(C)c3)=NO2)CN1C(=O)[C@@H](NC(=O)CC1CCC(O)CC1)C(C)(C)C)C(=O)C(=O)NC1CC1 (some centres unmarked),> 7.00
13,CNC(=O)C(=O)[C@H](CC1CC1)NC(=O)[C@@H]1C[C@]2(CC(c3cc(C)c(OC)c(C)c3)=NO2)CN1C(=O)[C@@H](NC(=O)[C@@H]1C[C@H]1C(C)C)C(C)(C)C,> 7.00
14,CCC[C@H](NC(=O)[C@@H]1C[C@]2(CC(c3cc(C)c(OC)c(C)c3)=NO2)CN1C(=O)[C@@H](NC(=O)[C@@H]1C[C@H]1c1ccccc1)C(C)(C)C)C(=O)C(=O)NC1CC1,> 7.00
15,COc1ccc(Cl)cc1C1=NO[C@]2(C1)C[C@@H](C(=O)N[C@@H](CC1CC1)C(=O)C(N)=O)N(C(=O)[C@@H](NC(=O)[C@H]1C[C@@H]1c1ccccc1)C(C)(C)C)C2,> 7.00
16,CNC(=O)C(=O)[C@H](CC1CC1)NC(=O)[C@@H]1C[C@]2(CC(c3cccc(Cl)c3)=NO2)CN1C(=O)[C@@H](NC(=O)C1(C#N)CC1)C(C)(C)C,6.30 to 7.00
17,CNC(=O)C(=O)[C@H](CC1CC1)NC(=O)[C@@H]1C[C@]2(CC(c3cccc4cccnc34)=NO2)CN1C(=O)[C@@H](NC(=O)[C@@H]1C[C@H]1c1ccccc1)C(C)(C)C,> 7.00
18,CCNC(=O)C(=O)[C@H](CC1CC1)NC(=O)[C@@H]1C[C@]2(CC(c3cc(C)c(OCC)c(Cl)c3)=NO2)CN1C(=O)[C@@H](NC(=O)CC1CCCCC1)C(C)(C)C,> 7.00
19,CCC[C@H](NC(=O)[C@@H]1C[C@]2(CC(c3cc(C)c(OC)cc3OC)=NO2)CN1C(=O)[C@@H](NC(=O)CC1CCCCC1)C(C)(C)C)C(=O)C(=O)NC,> 7.00
20,CCC[C@H](NC(=O)[C@@H]1C[C@]2(CC(c3cc(Cl)ccc3OCC)=NO2)CN1C(=O)[C@@H](NC(=O)CC1CCCCC1)C(C)(C)C)C(=O)C(=O)NC1CC1,> 7.00
21,CCC[C@H](NC(=O)[C@@H]1C[C@]2(CC(c3cccc(Cl)c3)=NO2)CN1C(=O)[C@@H](NC(=O)CC1CCCCC1)C(C)(C)C)C(=O)C(=O)NCC(F)(F)F,6.30 to 7.00
22,CNC(=O)C(=O)[C@H](CC1CC1)NC(=O)[C@@H]1C[C@]2(CC(c3cccc(Cl)c3)=NO2)CN1C(=O)[C@@H](NC(=O)C1(C)CC1)C(C)(C)C,6.30 to 7.00
23,CCC[C@H](NC(=O)[C@@H]1C[C@]2(CC(N(C)C)=NO2)CN1C(=O)[C@@H](NC(=O)OC1CCCC1)C(C)(C)C)C(=O)C(=O)NC1CC1,< 6.30
24,CCC[C@H](NC(=O)C1C[C@]2(CC(n3cc(C)c(=O)[nH]c3=O)=NO2)CN1C(=O)[C@@H](NC(=O)CC1CCCCC1)C(C)(C)C)C(=O)C(=O)NC1CC1 (some centres unmarked),6.30 to 7.00
25,CCOc1cc(OC)c(C2=NO[C@]3(C2)C[C@@H](C(=O)N[C@@H](CC2CC2)C(=O)C(=O)NC)N(C(=O)[C@@H](NC(=O)CC2CCCCC2)C(C)(C)C)C3)cc1Cl,> 7.00
26,CCC[C@H](NC(=O)[C@@H]1C[C@]2(CC(c3cc(Cl)c(OCC)cc3OC)=NO2)CN1C(=O)[C@@H](NC(=O)OC(C)(C)C)C(C)(C)C)C(=O)C(=O)NC,6.30 to 7.00
27,CCC[C@H](NC(=O)[C@@H]1C[C@]2(CC(c3cc(Cl)c(OC)cc3OC)=NO2)CN1C(=O)[C@@H](NC(=O)C1CC1)C(C)(C)C)C(=O)C(=O)NC1CC1,> 7.00
28,CCOc1c(C)cc(C2=NO[C@]3(C2)C[C@@H](C(=O)N[C@@H](CC2CC2)C(=O)C(=O)NC)N(C(=O)[C@@H](NC(=O)CC2CCCCC2)C(C)(C)C)C3)cc1Cl,> 7.00
29,CNC(=O)C(=O)[C@H](CC1CC1)NC(=O)C1C[C@]2(CC(c3cccc(Cl)c3)=NO2)CN1C(=O)[C@@H](NC(=O)[C@@H]1C[C@H]1c1cccc(F)c1)C(C)(C)C (some centres unmarked),> 7.00
30,CCOc1ccc(Cl)cc1C1=NO[C@]2(C1)C[C@@H](C(=O)N[C@@H](CC1CC1)C(=O)C(=O)NC)N(C(=O)[C@@H](NC(=O)CC1CCCCC1)C(C)(C)C)C2,> 7.00

# pKi: −log10 of the molar value.
